Measured values from several laboratories, pooled; numbers as filed in NIAID ChemDB.

Shared fields: whole-cell or culture tests; species: HIV-1

Conditions beyond the fields shown may differ between rows. ECn is the concentration giving n% inhibition of infection, replication or growth. An empty or dashed field is not shown. Two numbers with a dash give a range or band.

| compound | strain | mutations | measure | cell line | read by | value |
|---|---|---|---|---|---|---|
| C[C@H]1OCC[C@H]1OC(=O)N[C@@H](CSc1ccccc1)[C@H](O)CN1C[C@H]2CCS[C@H]2C[C@H]1C(=O)NC(C)(C)C | HXB2 | - | EC50 | CEM + CEM-SS | cytopathic effect / XTT | <2.562 µM |
| O=C(O[C@@H]1Cc2c(O)cc(O)cc2O[C@@H]1c1ccc(O)c(O)c1)c1cc(O)c(O)c(O)c1 | IIIB | - | EC50 | H9 | p24 | >10 µg/mL |
| Cc1cn([C@@H]2O[C@H](CO[Si](C)(C)C(C)(C)C)[C@@]3(OS(=O)(=O)C=C3N)[C@H]2O[Si](C)(C)C(C)(C)C)c(=O)n(CCCN)c1=O | - | - | EC50 | - | - | 0.03–0.76 µM |
| Cc1cn([C@H]2C[C@H](N=[N+]=[N-])[C@@H](CO)O2)c(=O)[nH]c1=O | Subtype B isolate | - | EC50 | PBMC | RT activity | <0.03 µM |
| O=S1(c2ccccc2)=NC(=S)Nc2ccccc21 | RF | - | EC50 | U-937 | RT activity | 5.04 µM |
| CCOC(=O)C1CN(Cc2ccc(S(N)(=O)=O)cc2)CCC1Nc1nc(Oc2c(C)cc(C#N)cc2C)c2sccc2n1 | IIIB | NNRTI-resistant (RT L100I) | EC50 | MT-4 | MTT | 0.389 µM |
| O=c1[nH]cnc2c1ncn2[C@H]1CC[C@@H](CO)O1 | HXB2D (RT-K65R) | RT-K65R | EC50 | MT-2 | XTT | 20 ± 1.1 µM |
| Cc1occc1C(=S)Nc1ccc(Cl)c(C(=O)OC2CCCC2)c1 | IIIB | RT-Y188L | EC50 | CEM | syncytia | 2.5 µg/mL |
| Cc1cc(C#N)cc(C)c1Oc1nc(NC2CCN(Cc3cccc(C(N)=O)c3)CC2)nc2sccc12 | IIIB | NNRTI-resistant (RT L100I) | EC50 | MT-4 | MTT | 0.0105 µM |
| CCCC1(CCC)CC(O)=C(C(CC)c2cccc(NS(=O)(=O)c3cn(C)cn3)c2)C(=O)O1 | IIIB | - | EC50 | H9 | - | 0.08 µM |
| CC1=C(C(=O)Nc2ccc(Cl)c(C(=O)OC(C)C)c2)SCCO1 | IIIB | - | EC50 | Macrophage | cytopathic effect / XTT | 0.26 µM |
| Cc1cn([C@@H]2O[C@H](CO)[C@@H](N=[N+]=[N-])[C@H]2O)c(=O)[nH]c1=O | - | - | EC90 | PBMC | - | >100 µM |
| Cc1cc(NS(=O)(=O)C(F)(F)F)ccc1N1C(=O)c2ccc(Cl)cc2C1=O | IIIB | - | EC50 | MT-4 | MTT / absorbance | 0.004 µM |
| CCCc1cc(=O)oc2c3c(c4c(c12)OC(C)(C)C=C4)O[C@H](C)[C@@H](C)[C@@H]3O | IIIB | - | EC50 | AA5 | cytopathic effect / XTT | 0.16 µM |
| O=c1[nH]cnc2c1ncn2[C@H]1CC[C@@H](CO)O1 | 8681 CLADE D CLADE D | - | EC50 | PBMC | p24 | 6.85 µM |
| Cc1cc(C#N)cc(C)c1Oc1nc(Nc2ccc(C#N)cc2)nc(N)c1Br | IIIB | NNRTI-resistant (RT L100I) | EC50 | MT-4 | MTT | 0.00538 µM |
| O=C(O[C@H]1Cc2c(O)cc3c(c2O[C@H]1c1cc(O)c(O)c(O)c1)[C@H]1c2c(O)cc(O)cc2O[C@@](c2cc(O)c(O)c(O)c2)(O3)[C@@H]1O)c1cc(O)c(O)c(O)c1 | IIIB | - | EC50 | H9 | p24 | >40 µg/mL |
| Nc1ccn([C@H]2CC[C@@H](CO)O2)c(=O)n1 | HXB2D (RT D67N K70R T215Y) | RT-D67N K70R T215Y | EC50 | MT-2 | - | 0.006 µM |
| COc1cc(C(=O)N[C@H](C(=O)NCCCC[C@@H](CO)N(CC(C)C)S(=O)(=O)c2ccc(N)cc2)C(c2ccccc2)c2ccccc2)ccc1O | 4596 PR-M46I V82T I84V L10R L63P | PR-M46I V82T I84V L10R L63P | EC50 | MT-4 | cytopathic effect / MTT | <0.023 µM |
| O=c1[nH]cnc2c1ncn2[C@H]1CC[C@@H](CO)O1 | HXB2D | - | EC50 | MT-2 | cytopathic effect / XTT | 0.004 µM |
| CC1=C(C(=O)Nc2ccc(Cl)c(C(=O)OC(C)C)c2)SCCO1 | RF | - | EC50 | C-344 | - | 2.1 µM |
| O=C(O[C@@H]1Cc2c(O)cc(O)c([C@@H]3c4c(O)cc(O)cc4O[C@H](c4cc(O)c(O)c(O)c4)[C@H]3O)c2O[C@@H]1c1cc(O)c(O)c(O)c1)c1cc(O)c(O)c(O)c1 | IIIB | - | EC50 | H9 | p24 | >9 µg/mL |
| Cc1cn([C@H]2C=C(N=[N+]=[N-])[C@@H](CO)O2)c(=O)[nH]c1=O | - | - | EC90 | PBMC | - | 83.5 µM |
| Cc1cn([C@H]2C[C@H](N=[N+]=[N-])[C@@H](CO)O2)c(=O)[nH]c1=O | IIIB | - | EC50 | MT-4 | MTT | 0.0151 µM |
| CC(C)[C@@H]1[C@H](OC(=O)N[C@@H](Cc2ccccc2)[C@H](O)CN2C[C@H]3CCCC[C@H]3C[C@H]2C(=O)NC(C)(C)C)CCS1(=O)=O | HXB2 | - | EC50 | CEM + CEM-SS | cytopathic effect / XTT | <0.085 µM |
| CCCC(=O)O[C@@]12C[C@@H](C)[C@@]3(O)[C@@H](C=C(COC(C)=O)C[C@]4(O)C(=O)C(C)=C[C@@H]34)[C@@H]1C2(C)C | IIIB | - | EC50 | MT-4 | MTT | 0.6 µM |
| Cc1cn([C@@H]2O[C@H](CO[Si](C)(C)C(C)(C)C)C3(OS(=O)(=O)C=C3N)[C@H]2O[Si](C)(C)C(C)(C)C)c(=O)n(C/C=C/CO)c1=O | - | - | EC50 | - | - | 0.03–0.76 µM |
| CCCc1cc(=O)oc2c3c(c4c(c12)OC(C)(C)C=C4)O[C@H](C)[C@@H](C)[C@@H]3O | RF | - | EC50 | CEM + CEM-SS | syncytia | 0.08 µM |
| CCOCn1c(Sc2ccccc2)c(CC)c(=O)[nH]c1=S | IIIB | - | EC50 | CEM | syncytia | 0.012 µM |
| CCc1c(Sc2ccccn2)n(COCc2ccccc2)c(=O)[nH]c1=O | IIIB | - | EC50 | Macrophage | cytopathic effect / XTT | 0.007 µM |
| Cc1ccc(C(=O)N[C@H](C(=O)NCCCC[C@@H](CO)N(CC(C)C)S(=O)(=O)c2ccc(N)cc2)C(c2ccccc2)c2ccccc2)cn1 | NL4-3 | - | EC50 | MT-4 | cytopathic effect / MTT | 0.024 µM |
| [N-]=[N+]=NC1=C[C@H](n2ccc(N)nc2=O)O[C@@H]1CO | - | - | EC50 | PBMC | - | 44.9 µM |
| CCCC1(CCC)CC(O)=C(C(c2cccc(NS(=O)(=O)c3cn(C)cn3)c2)C2CC2)C(=O)O1 | IIIB | - | EC50 | H9 | - | >1 µM |
| CCc1c(Sc2ccccc2)n(COCc2ccccc2)c(=O)[nH]c1=O | IIIB | - | EC50 | CEM | syncytia | 0.011 µM |
| Cc1cc(C#N)cc(C)c1Oc1nc(NC2CCC(NCc3ccc(Br)cc3)CC2)nc2ccsc12 | RES056 | - | EC50 | MT-4 | MTT | >3.45 µM |
| O=S1(c2ccccc2)=NC(=S)Nc2ccccc21 | IIIB | - | EC50 | U-937 | cytopathic effect / XTT | 5.04 µM |
| CC(=O)O[C@@H]1[C@@H](C)[C@@]2(O)[C@@H](C=C(O)C[C@]3(O)C(=O)C(C)=C[C@@H]23)[C@@H]2C(C)(C)[C@]12O | IIIB | - | EC50 | MT-4 | MTT | >307 µM |
| C[C@@H]1[C@H](OC(=O)N[C@@H](CSc2ccccc2)[C@H](O)CN2C[C@H]3CCS[C@H]3C[C@H]2C(=O)NC(C)(C)C)CCS1(=O)=O | HXB2 | - | EC50 | CEM + CEM-SS | cytopathic effect / XTT | <0.019 µM |
| CCCC1(CCc2ccccc2)CC(O)=C(C(c2cccc(NS(=O)(=O)c3cn(C)cn3)c2)C(C)(C)C)C(=O)O1 | IIIB | - | EC50 | H9 | - | 0.5 µM |
| Cc1cn([C@@H]2O[C@H](CO[Si](C)(C)C(C)(C)C)[C@@]3(OS(=O)(=O)C=C3N)[C@H]2O[Si](C)(C)C(C)(C)C)c(=O)n(/C=C\CO)c1=O | - | - | EC50 | - | - | 0.03–0.76 µM |
| CCn1c(=O)c(C)cn([C@@H]2O[C@H](CO[Si](C)(C)C(C)(C)C)C3(OS(=O)(=O)C=C3N)[C@H]2O[Si](C)(C)C(C)(C)C)c1=O | IIIB | RT-E138K | EC50 | CEM | syncytia | >75 µM |
| Cc1cn([C@@H]2O[C@H](CO[Si](C)(C)C(C)(C)C)C3(OS(=O)(=O)C=C3N)[C@H]2O[Si](C)(C)C(C)(C)C)c(=O)n(CCCNC(=O)c2ccc(N=[N+]=[N-])cc2)c1=O | - | - | EC50 | - | - | 0.03–0.76 µM |
| O=C(O[C@@H]1Cc2c(O)cc(O)cc2O[C@@H]1c1cc(O)c(O)cc1-c1c([C@H]2Oc3cc(O)cc(O)c3C[C@H]2OC(=O)c2cc(O)c(O)c(O)c2)cc(O)c(O)c1O)c1cc(O)c(O)c(O)c1 | IIIB | - | EC50 | H9 | p24 | >50 µg/mL |
| Cc1ccnc2c1NC(=O)c1cccnc1N2C1CC1 | IIIB | - | EC50 | MT-4 | MTT / absorbance | 0.05 µM |
| CCCC(=O)O[C@@H]1[C@@H](C)[C@@]2(O)[C@@H](CC(=O)C[C@]3(O)C(=O)C(C)=C[C@@H]23)[C@@H]2C(C)(C)[C@]12OC(=O)CCC | IIIB | - | EC50 | MT-4 | MTT | >20 µM |
| Cc1cc(C)cc(S(=O)(=O)c2c(C(=O)NC(C)C(N)=O)[nH]c3ccc(Cl)cc23)c1 | IIIB | - | EC50 | MT-4 | MTT | 0.0016 µM |
| CC(C)=CCN1Cc2cc(Cl)cc3[nH]c(=S)n(c23)C[C@@H]1C | IIIB | RT-Y181C | EC50 | CEM | syncytia | 4.7 µM |
| CC(C)[C@@H]1[C@H](OC(=O)N[C@@H](Cc2ccccc2)[C@H](O)CN2C[C@H]3CCS[C@H]3C[C@H]2C(=O)NC(C)(C)C)CCS1(=O)=O | HXB2 | - | EC50 | CEM + CEM-SS | cytopathic effect / XTT | <0.038 µM |
| Cc1cc(NC(=S)c2ccccc2)ccc1N1C(=O)c2ccc(Cl)cc2C1=O | IIIB | - | EC50 | MT-4 | MTT / absorbance | 0.632 µM |
| CC(C)(C)NC(=O)[C@@H]1C[C@@H]2SCC[C@@H]2CN1C[C@@H](O)[C@H](CSc1ccccc1)NC(=O)O[C@@H]1CCS(=O)(=O)C1 | HXB2 | - | EC50 | CEM + CEM-SS | cytopathic effect / XTT | <0.059 µM |
| Cc1cc(NC(=S)c2ccc(Cl)cc2)ccc1N1C(=O)c2ccc(Cl)cc2C1=O | IIIB | - | EC50 | MT-4 | MTT / absorbance | 0.18 µM |
| CCCc1cc(=O)oc2c3c(c4c(c12)OC(C)(C)CC4)O[C@@H](C)[C@H](C)[C@@H]3O | RF | - | EC50 | CEM + CEM-SS | p24 | 0.11 µM |
| CC(C)Nc1cccnc1N1CCN(C(=O)c2cc3cc(NS(C)(=O)=O)ccc3[nH]2)CC1 | Subtype B isolate | - | EC50 | PBMC | RT activity | 0.02 µM |
| CC(=O)O[C@@]12C[C@@H](C)[C@@]3(O)[C@@H](C=C(CO)C[C@]4(O)C(=O)C(C)=C[C@@H]34)[C@@H]1C2(C)C | IIIB | - | EC50 | MT-4 | MTT | 0.0009 µM |
| CC(C)(C)NC(=O)[C@@H]1C[C@@H]2SCC[C@@H]2CN1C[C@@H](O)[C@H](CSc1ccccc1)NC(=O)O[C@H]1CCS(=O)(=O)C1 | HXB2 | - | EC50 | CEM + CEM-SS | cytopathic effect / XTT | <0.059 µM |
| Cc1cn([C@H]2C=C[C@@H](CO)O2)c(=O)[nH]c1=O | HXB2D (RT D67N K70R T215Y) | RT-D67N K70R T215Y | EC50 | MT-2 | - | 0.0118 µM |
| [N-]=[N+]=N[C@H]1[C@@H](O)[C@H](n2ccc(N)nc2=O)O[C@@H]1CO | - | - | EC90 | PBMC | - | >100 µM |
| Cc1cn([C@@H]2O[C@H](CO[Si](C)(C)C(C)(C)C)C3(OS(=O)(=O)C=C3N)[C@H]2O[Si](C)(C)C(C)(C)C)c(=O)n(C)c1=O | IIIB | RT-V106A | EC50 | CEM | syncytia | 2.2 µg/mL |
| O=C(O)c1cc(O)cc(O)c1N=Nc1ccc(/C=C/c2ccc(N=Nc3c(O)cc(O)cc3C(=O)O)cc2S(=O)(=O)O)c(S(=O)(=O)O)c1 | CLADE B | - | EC50 | PBMC | p24 | 1.5 µg/mL |
| Cc1occc1C(=S)Nc1ccc(Cl)c(/C=N/OC(C)(C)C)c1 | IIIB | RT-E138K | EC50 | CEM | syncytia | 0.075 µg/mL |
| O=C1N=S(=O)(c2ccccc2)c2ccccc2N1 | IIIB | - | EC50 | CEM + CEM-SS | cytopathic effect / XTT | 155 µM |
| Cc1cn([C@H]2C[C@H](N=[N+]=[N-])[C@@H](CO)O2)c(=O)[nH]c1=O | IIIB | NNRTI-resistant (RT K103N) | EC50 | MT-4 | MTT | 0.00524 µM |

For reference, 3 entries again:

CC(C)=CCN1Cc2cc(Cl)cc3[nH]c(=S)n(c23)C[C@@H]1C ; strain: IIIB ; mutations: RT-Y181C ; measure: EC50 ; cell line: CEM ; read by: syncytia ; value: 4.7 µM
CCCC1(CCC)CC(O)=C(C(c2cccc(NS(=O)(=O)c3cn(C)cn3)c2)C2CC2)C(=O)O1 ; strain: IIIB ; measure: EC50 ; cell line: H9 ; value: >1 µM
O=c1[nH]cnc2c1ncn2[C@H]1CC[C@@H](CO)O1 ; strain: HXB2D ; measure: EC50 ; cell line: MT-2 ; read by: cytopathic effect / XTT ; value: 0.004 µM